Our source for the Activity values is ChEMBL document CHEMBL1629590, “Variety of antiprion compounds discovered through an in silico screen based on cellular-form prion protein structure: Correlation between antiprion activity and binding affinity” (Antimicrob Agents Chemother, 2009).

The chains behind the UniProt entries cited, without tags or fusion partners.
UniProt P04925, whole entry: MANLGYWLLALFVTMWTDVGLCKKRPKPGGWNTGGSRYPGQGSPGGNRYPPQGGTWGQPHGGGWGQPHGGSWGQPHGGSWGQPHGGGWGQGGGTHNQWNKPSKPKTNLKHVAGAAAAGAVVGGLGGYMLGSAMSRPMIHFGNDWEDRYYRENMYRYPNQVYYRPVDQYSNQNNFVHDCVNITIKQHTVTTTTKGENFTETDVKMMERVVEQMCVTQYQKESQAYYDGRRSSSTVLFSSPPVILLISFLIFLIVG

The test deals with Major prion protein (Mus musculus) (UniProt P04925). Description: Antiprion activity against mouse recombinant PrP expressed in Fukuoka-1 stain infected mouse GT1-7 cells assessed as remaining PrP-res level at 10 uM after 72 hrs by Western blotting relative to control. In kind it is cell-based. In short, it runs like this: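 GT+FK cells (GT1-7 neuronal line persistently infected with Fukuoka-1 agent) in DMEM/10% FBS, 37°C, 5% CO2; 1.5 × 10⁵ cells/well, dosed 15 h after plating with compound from fresh 10 mM DMSO stock (vehicle 0.1%) for 72 h. Lysates in Triton X-100/deoxycholate buffer adjusted to 2 mg/ml protein; PrP^Sc by Western blot with M-20 antibody, densitometry versus solvent control; effective if <70% of control; ≥2 independent experiments.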
A general note: In western blotting, separated proteins are transferred to a membrane and probed.
For the compound `C=CCNC(=O)NC(=O)CSc1nc2ccccc2n1CC(C)C`, the Activity came out at 56.7%. On to `CC(=O)N(Cc1ccccc1)Cc1cc2cccc(C)c2n2nnnc12`, for which the Activity turned out to be 95.7%. In the case of `O=C(CSc1ncnc2sc3c(c12)CCC3)NCC1CCCO1` (stereo not drawn), the Activity came to 93.7%.
